IC50 of neutralisation of infectious SARS-CoV on Vero E6 cells data for two substances are collected here from publication PMC9653429.

The test concerns the target spike protein of SARS-CoV (NCBI:txid229992) (SARS-CoV) (UniProt P59594).

In turn, “ACE2-IgM-Fc hexamer (from UniProt Q9BYF1-1;P01871) (Fc fusion)” registered an IC50 of neutralisation of infectious SARS-CoV on Vero E6 cells of 0.68 nM. Regarding “ACE2-IgM-Fc monomer (from UniProt Q9BYF1-1;P01871) (Fc fusion)”, the IC50 of neutralisation of infectious SARS-CoV on Vero E6 cells stood at 65.2 nM.
